Patent US20040254162A1, “Oxazolidinone derivatives as antimicrobials” (priority 2001, published 2004)

Test system: Clostridium perfringens
Format: cell-based
Conditions: single isolates, anaerobic agar dilution

Question: For `CC1(C)S[C@@H]2[C@H](NC(=O)[C@H](N)c3ccc(O)cc3)C(=O)N2[C@H]1C(=O)O` [Amox], which “MIC Clostridium perfringens” value is on record?
Answer: Its value is “<=.125 μg/ml”.
